Assay results: US20090155209A1, “NOVEL MACROCYCLIC INHIBITORS OF HEPATITIS C VIRUS REPLICATION” (priority 2007, published 2009)

The chains behind the UniProt entries cited, without tags or fusion partners. Residues count along the entry.
UniProt P27958, 1027-1657 limits assumed: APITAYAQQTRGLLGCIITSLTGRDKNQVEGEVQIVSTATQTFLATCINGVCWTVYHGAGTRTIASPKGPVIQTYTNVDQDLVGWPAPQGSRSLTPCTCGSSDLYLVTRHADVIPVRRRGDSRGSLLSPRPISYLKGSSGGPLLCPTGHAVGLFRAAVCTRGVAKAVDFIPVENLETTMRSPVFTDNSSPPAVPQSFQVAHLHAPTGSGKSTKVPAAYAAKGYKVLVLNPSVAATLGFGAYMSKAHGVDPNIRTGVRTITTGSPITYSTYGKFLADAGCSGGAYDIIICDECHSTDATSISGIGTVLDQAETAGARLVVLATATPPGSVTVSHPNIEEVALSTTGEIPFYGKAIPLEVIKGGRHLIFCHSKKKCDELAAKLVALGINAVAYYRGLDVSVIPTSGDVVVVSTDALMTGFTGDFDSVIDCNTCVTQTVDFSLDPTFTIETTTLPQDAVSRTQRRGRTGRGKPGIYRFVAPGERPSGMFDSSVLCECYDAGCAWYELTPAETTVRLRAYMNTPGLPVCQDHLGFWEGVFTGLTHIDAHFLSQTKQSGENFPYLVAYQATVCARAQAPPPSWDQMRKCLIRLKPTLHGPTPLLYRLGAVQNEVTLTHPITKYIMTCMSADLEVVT
UniProt P27958, 1658-1711 partner limits assumed: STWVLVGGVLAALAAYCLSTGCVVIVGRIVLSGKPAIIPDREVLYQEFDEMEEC

What was measured:
NS3-NS4 [1] = molecular target: T1, NS3-NS4 (Hepatitis C virus genotype 1a, UniProt P27958); experiment: NS3-NS4 activity, IC50 (Example 37, Table 8); format: biochemical
NS3-NS4 [2] = molecular target: T1, NS3-NS4; conditions: NS3-NS4 activity

Row | SMILES | IC50 (NS3-NS4 [1]) [nM] | EC50 (NS3-NS4 [2]) [nM]
1 | CC(C)CC1(S(=O)(=O)NC(=O)[C@@]23C[C@H]2/C=C\CCCCC[C@H](NC(=O)OC(C)(C)C)C(=O)N2C[C@H](OC(=O)N4Cc5cccc(F)c5C4)C[C@H]2C(=O)N3)CC1 | < 100 | < 100
2 | CC(C)(C)OC(=O)N[C@H]1CCCCC/C=C\[C@@H]2C[C@@]2(C(=O)NS(=O)(=O)C2(C)CC2)NC(=O)[C@@H]2C[C@@H](OC(=O)N3Cc4cccc(F)c4C3)CN2C1=O [Compound 444] | < 100 | < 100
3 | COCC1(S(=O)(=O)NC(=O)[C@@]23C[C@H]2/C=C\CCCCC[C@H](NC(=O)OC(C)(C)C)C(=O)N2C[C@H](OC(=O)N4Cc5cccc(F)c5C4)C[C@H]2C(=O)N3)CC1 | < 100 | < 100
4 | CCCC1(S(=O)(=O)NC(=O)[C@@]23C[C@H]2/C=C\CCCCC[C@H](NC(=O)OC(C)(C)C)C(=O)N2C[C@H](OC(=O)N4Cc5cccc(F)c5C4)C[C@H]2C(=O)N3)CC1 | < 100 | < 100
5 | CCC1(S(=O)(=O)NC(=O)[C@@]23C[C@H]2/C=C\CCCCC[C@H](NC(=O)OC(C)(C)C)C(=O)N2C[C@H](OC(=O)N4Cc5cccc(F)c5C4)C[C@H]2C(=O)N3)CC1 | < 100 | < 100
